For test [1], the system named is Toxoplasma gondii RH-β1 strain. Conditions: read-out: IC50 assessed on Toxoplama Gondii; RH-β1 strain in HFF monolayers, 48-72 hr, CPRG β-galactosidase readout, triplicates.
In test [2] the test system is asynchronous 3D7 chloroquine-sensitive P. falciparum infected red blood cells. The experiment in a line: Labeled hypoxanthine incorporation assay (in vitro anti-malarial activity). Type of test: cell-based. As to conditions: read-out: IC50 assessed on Plasmodium Falciparum; 3D7 chloroquine-sensitive strain, infected RBC, 48 h contact, [3H]-hypoxanthine incorporation; two independent experiments in duplicates.

Each structure is given as a SMILES string. Only a part of the results on these compounds is given; other tests are left out.

Broadly, the IC50 is the concentration that gives 50% inhibition.

Turning to `C[C@@H](COC(=O)N1CCC(N(C(=O)C(C)(C)C)c2ccccc2)CC1)N(Cc1ccccc1)Cc1ccccc1`, the half-inhibitory concentration (IC50) is 3.7 µM in test [1] and 2.96 µM in test [2].

The values are drawn from US20100292214A1, “Compounds with Antiparasitic Activity, Applications thereof to the Treatment of Infectious Diseases Caused by Apicomplexans” (commissariat a l'Energie Atomique, priority 2007, published 2010).
